In paper PMC11411213 (Journal of Molecular Cell Biology, 2024):

System: SARS-CoV-2 Wuhan variant
Type: cell-based

COc1cc(Nc2ncc(F)c(Nc3ccc4c(n3)NC(=O)C(C)(C)O4)n2)cc(OC)c1OC [Tamatinib]
SI (selectivity index): 55.49
